# From PubChem BioAssay AID720706 (Broad Institute, 2013)
# The list shows a part of the results, in another mix than the full data. Activity calls are given as the source filed them.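 The calls were made as follows: active = significant combined selectivity score with lowered wild-type GFP, culture density cut under 30%, mutant RFP and density less affected; inactive = any of these conditions unmet.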
# Assay: reduced GFP signal of wild-type E. coli, primary screen, bacterial rRNA inhibitor project, GFP/RFP fluorescence, OD600, single point (AID 720706)
# Conditions: E. coli WT GFP vs humanized-ribosome RFP mutants, 24 h, active compounds read low, DMSO median 0, no signal -100
row,SMILES,GFP signal change (wild-type ribosome)
1,COc1ccc(N)c([N+](=O)[O-])c1[N+](=O)[O-],active: -32.4%
